A short description of the data set: syncytia formation, GFP+ area, co-transfected HEK293T. The conditions noted are these: glycan lost; control: WT hACE2.

For the substance “hACE2 (angiotensin-converting enzyme 2): N103A”, the “other: cell-cell fusion” value is “decreases”.

On to “hACE2 (angiotensin-converting enzyme 2): N322A”, for which the “other: cell-cell fusion” value is “increases”.

For the origin of these results see PMC12090729.
